Measurements published in article PMC4999862, “Site-specific Isopeptide Bridge Tethering of Chimeric gp41 N-terminal Heptad Repeat Helical Trimers for the Treatment of HIV-1 Infection” (Scientific Reports, 2016).
Bridge positions count the residues as written; N and C are the ends. I, II: the chains in the order shown.

What follows are substances tested on MT-2 cells. Settings: CC50 in MT-2 cells / EC50 HIV-1IIIB.
Type: cell-based
Description: The cytotoxic effect of the compounds on MT-2 cells was determined using the XTT assay as described previously.

| Substance | SI (selectivity index) = CC50/EC50 for inhibiting HIV-1IIIB infection |
| --- | --- |
| I: Ac-EQEAIKKKIEAIEKAIEAQQHLLQLTVWGIKQLQARIL-NH2 / II: Ac-EQEAIKKKIEAIEKAIEAQQHLLQLTVWGIKQLQARIL-NH2 / III: Ac-EQEAIKKKIEAIEKAIEAQQHLLQLTVWGIKQLQARIL-NH2 (amide I:8-III:13, I:13-II:8, II:13-III:8) [(IZ14N24N)3] | >50000 |
| I: Ac-EQEAIKKKIEAIEKLLQLTVWGIKQLQARIL-NH2 / II: Ac-EQEAIKKKIEAIEKLLQLTVWGIKQLQARIL-NH2 / III: Ac-EQEAIKKKIEAIEKLLQLTVWGIKQLQARIL-NH2 (amide I:8-III:13, I:13-II:8, II:13-III:8) [(IZ14N17)3] | 3842 |
| I: Ac-EQEAIKKKIEAIEKLLQLTVWGIKQLQARILAVERYLK-NH2 / II: Ac-EQEAIKKKIEAIEKLLQLTVWGIKQLQARILAVERYLK-NH2 / III: Ac-EQEAIKKKIEAIEKLLQLTVWGIKQLQARILAVERYLK-NH2 (amide I:8-III:13, I:13-II:8, II:13-III:8) [(IZ14N24C)3] | 1925 |
| I: Ac-IKKEQEAIKKKIEAIEKLLQLTVWGIKQLQARIL-NH2 / II: Ac-IKKEQEAIKKKIEAIEKLLQLTVWGIKQLQARIL-NH2 / III: Ac-IKKEQEAIKKKIEAIEKLLQLTVWGIKQLQARIL-NH2 (amide I:11-II:16, I:16-III:11, II:11-III:16) [(IZ17N17)3] | 976 |
| I: Ac-IKKKIEAIEKAIEAQQHLLQLTVWGIKQLQARIL-NH2 / II: Ac-IKKKIEAIEKAIEAQQHLLQLTVWGIKQLQARIL-NH2 / III: Ac-IKKKIEAIEKAIEAQQHLLQLTVWGIKQLQARIL-NH2 (amide I:4-II:9, I:9-III:4, II:4-III:9) [(IZ10N24N)3] | 3833 |
| I: Ac-IKKKIEAIEKLLQLTVWGIKQLQARIL-NH2 / II: Ac-IKKKIEAIEKLLQLTVWGIKQLQARIL-NH2 / III: Ac-IKKKIEAIEKLLQLTVWGIKQLQARIL-NH2 (amide I:4-II:9, I:9-III:4, II:4-III:9) [(IZ10N17)3] | 34 |
| I: Ac-IKKKIEAIEKLLQLTVWGIKQLQARILAVERYLK-NH2 / II: Ac-IKKKIEAIEKLLQLTVWGIKQLQARILAVERYLK-NH2 / III: Ac-IKKKIEAIEKLLQLTVWGIKQLQARILAVERYLK-NH2 (amide I:4-II:9, I:9-III:4, II:4-III:9) [(IZ10N24C)3] | 454 |
